EC50 data for 19 compounds are collected here from patent publication US6348477B1, “Anti-herpesvirus compounds and methods for identifying, making and using same” (Boehringer Ingelheim(Canada) Ltd., priority 1995, dated 2002).

The test system of this test is HCMV (strain AD169). As to the kind of experiment: Inhibition of HCMV replication, plaque reduction assay (PRA, Hs-68 cells). The test is classed as cell-based, human cytomegalovirus. The following applies: read-out: PRA CMV EC50. The method, then:
C) Inhibition of Human Cytomegalovirus (HCMV) replication
The effect of compounds on the replication of HCMV has been measured by using an ELISA-based assay (ELISA) and a plaque reduction assay (PRA).
Hs-68 cells ( ATCC # CRL 1635) were seeded in 12-well plates at 83,000 cells/well in 1 mL of DMEM medium (Gibco Canada Inc.) supplemented with 10% fetal bovine serum (FBS, Gibco Canada Inc.). The plates were incubated for 3 days at 37° to allow the cells to reach 80-90% confluency prior to the assay.
The medium was removed from the cells by aspiration. The cells were then infected with approximately 50 PFU of HCMV (strain AD169, ATCC VR-538) in DMEM medium supplemented with 5% inactivated FBS (assay medium). The virus was allowed to adsorb to cells for 2 h at 37°. Following viral adsorption, the medium was removed from the wells by aspiration. The cells were then incubated with or without 1 mL of appropriate concentrations of test reagent in assay medium. After 4 days of incubation at 37°, the medium was exchanged with fresh medium containing test compound and 4 days later the cells were fixed with 1% aqueous formaldehyde and stained with a 2% crystal violet solution in 20% ethanol in water. Microscopic plaques were counted using a stereomicroscope. Drug effects were calculated as a percent reduction in the number of plaques in the presence of each drug concentration compared to the number observed in the absence of drug. Ganciclovir was used as a positive control in all experiments.
The EC50 values obtained according to this assay for certain thiazolyl derivatives of this invention are listed in the following tables under the heading PRA CMV.

Molecules are shown by their SMILES. Where two headings read alike, the source gives them in different places. Structures were worked out from names or drawings and are uncertain.

The term EC50 denotes the concentration giving half of the maximal effect. Consider `CC(C)(C)CC(=O)N(CC(=O)Nc1ccc(-c2csc(N)n2)cc1)Cc1ccccc1`, for which the EC50 (Group 3, Table 1) worked out at 15 µM.

On to `Nc1nc(-c2ccc(NC(=O)CN(Cc3ccccc3)C(=O)Cc3ccccn3)cc2)cs1`, for which the EC50 was determined as 2 µM (Group 2, Table 1) and 16 µM (Group 3, Table 1).

Turning to `CC1(C(=O)N(CC(=O)Nc2ccc(-c3csc(N)n3)cc2)Cc2ccccc2)CCCCC1`, the half-maximal effective concentration (EC50) is, setting by setting: (Group 2, Table 1) 2.2 µM; (Group 3, Table 1) 7.7 µM.

`Nc1nc(-c2ccc(NC(=O)CN(Cc3ccccc3)C(=O)C3CCCCCC3)cc2)cs1`: under “Group 3, Table 1”, the EC50 came to 11 µM.

In the case of `Nc1nc(-c2ccc(NC(=O)CN(Cc3ccccn3)C(=O)C3CCCCC3)cc2)cs1`, the EC50 (Group 3, Table 1) turned out to be 14 µM.

In the case of `Nc1nc(-c2ccc(NC(=O)CN(Cc3ccccc3)C(=O)CC3CCCCC3)cc2)cs1`, the EC50 (Group 3, Table 1) came out at 16 µM.

Consider `Nc1nc(-c2ccc(NC(=O)CN(Cc3ccccc3)C(=O)c3cnccn3)cc2)cs1`, for which the EC50 came out at 2.4 µM (Group 2, Table 1) and 7 µM (Group 3, Table 1).

As to `CC(C)(C)OC(=O)N1CCC(C(=O)N(CC(=O)Nc2ccc(-c3csc(N)n3)cc2)Cc2ccccc2)CC1`, the EC50 (Group 3, Table 1) is 3 µM.

As for `Nc1nc(-c2ccc(NC(=O)CN(Cc3cccnc3)C(=O)C3CCCCC3)cc2)cs1`, where the note is “Group 3, Table 1”, the EC50 is 7.3 µM.

For the compound `Nc1nc(-c2ccc(NC(=O)CN(Cc3ccccc3)C(=O)C3CCCC3)cc2)cs1`, the EC50 (Group 2, Table 1) is 3 µM and the EC50 (Group 3, Table 1) turned out to be 7 µM.

For `CC(C)(C)C(=O)N(CC(=O)Nc1ccc(-c2csc(N)n2)cc1)Cc1ccccc1`, the EC50 (Group 3, Table 1) is 5.3 µM.

Consider `COc1ccc(CN(CC(=O)Nc2ccc(-c3csc(N)n3)cc2)C(=O)C2CCCCC2)cc1`, for which the EC50 (Group 3, Table 1) came to 13 µM.

On to `Nc1nc(-c2ccc(NC(=O)CN(Cc3ccccc3)C(=O)C3CCCCC3)cc2)cs1` [Example 4, N-{2-{{4-(2-Amino-4-thiazolyl)phenyl)amino}-2-oxoethyl}-N-(phenylmethyl)cyclohexanecarboxamide], for which the EC50 is 10 µM (Group 2, Table 1) and 7 µM (Group 3, Table 1).

`Nc1nc(-c2ccc(NC(=O)CN(Cc3cccs3)C(=O)C3CCCCC3)cc2)cs1`: for the setting “Group 3, Table 1”, the EC50 was 5.8 µM.

Consider `CC(=O)N(CC(=O)Nc1ccc(-c2csc(N)n2)cc1)Cc1ccccc1`, for which the EC50 (Group 3, Table 1) was found to be 7 µM.

Consider `CC(C)C(=O)N(CC(=O)Nc1ccc(-c2csc(N)n2)cc1)Cc1ccccc1`, for which, under “Group 3, Table 1”, the EC50 amounted to 12 µM.

As for `Nc1nc(-c2ccc(NC(=O)CN(CCc3ccccn3)C(=O)C3CCCCC3)cc2)cs1`, for the setting “Group 3, Table 1”, the EC50 was 14 µM.

For the compound `Nc1nc(-c2ccc(NC(=O)CN(Cc3ccccc3)C(=O)CC3CCCC3)cc2)cs1`, the EC50 (Group 3, Table 1) came out at 14 µM.

With `Nc1nc(-c2ccc(NC(=O)CN(Cc3ccccc3)C(=O)c3cccs3)cc2)cs1`, the EC50 is, setting by setting: (Group 2, Table 1) 2 µM; (Group 3, Table 1) 4.5 µM.
